From paper PMC4133253 come the findings set out here.

Data set [1] deals with GST-6xHis-VP19C (Herpes simplex virus type 1 strain KOS). The experiment in a line: EMSA. Conditions: 1.5 and 3 ug protein, 1.5 ng probe; recombinant protein; residues 1-465; protein details: N-terminal GST-6xHis; label: 5'-32P. (Mobility shift assays separate free from complexed probe on a gel.)
The test system is the same in data set [2]. The experiment in a line: competition with a labelled probe. The conditions noted are these: 50-fold excess unlabeled DNA reduces the complex; recombinant protein; residues 1-465; protein details: N-terminal GST-6xHis; label: 5'-32P.

The exact form of at least one protein or probe is not confirmed.

For “CCCCCCACCACACGCGATACTGCAGGGCAGACGCTGTGGTTGCTTGGCCTGGACGGCACAGACGCG (double strand) [66mer dsDNA]”, the binding result in data set [1] and in data set [2] was “binds” throughout.
